# According to patent publication US20160264649A1 (published 2016):
# Changes are numbered by the printed parent chain.
# B1: PGT-141 (4964_G22; 4993_K13) (antibody, V domains shown)
# VH: QVQLVQSGPEVKKPGSSVKVSCKASGNTFSKYDVHWVRQATGQGLEWVGWMSHEGDKTESAQRFKGRVTFTRDTSASTAYMELRGLTSDDTAIYYCTRGSKHRLRDYVLYDDYGLINYQEWNDYLEFLDVWGHGTAVTVSS
# VL: DTVVTQSPLSLPVTPGEAASMSCSSTQSLRHSNGANYLAWYQHKPGQSPRLLIRLGSQRASGVPDRFSGSGSGTHFTLKISRVEAEDAAIYYCMQGLNRPWTFGKGTKLEIK
# B2: PGT-142 (4995_E20) (antibody, V domains shown)
# VH: B1 VH with M51I, G55R, S77T
# VL: B1 VL
# B3: PGT-143 (4980_N08) (antibody, V domains shown)
# VH: B1 VH with V5E, P9A
# VL: B1 VL with S24T, A85P
# Molecular target: HIV-1 Env of isolate MG RM-A-007 (subtype A) (HIV-1)
# Experiment: cell-based or functional assay
row,Binder,"IC50, pseudovirus neutralization [µg/mL]"
1,B1,> 50
2,B2,> 50
3,B3,> 50

# Molecular target: HIV-1 Env of isolate MG RM-AG-001 (subtype AG) (HIV-1)
# Experiment: cell-based or functional assay
row,Binder,"IC50, pseudovirus neutralization [µg/mL]"
1,B1,18
2,B2,12.4
3,B3,18.9

# Molecular target: HIV-1 Env of isolate MG RM-AG-009 (subtype AG) (HIV-1)
# Experiment: cell-based or functional assay
row,Binder,"IC50, pseudovirus neutralization [µg/mL]"
1,B1,> 50
2,B2,> 50
3,B3,> 50

# Molecular target: HIV-1 Env of isolate MG RM-A-008 (subtype A) (HIV-1)
# Experiment: cell-based or functional assay
row,Binder,"IC50, pseudovirus neutralization [µg/mL]"
1,B1,> 50
2,B2,> 50
3,B3,> 50

# Molecular target: HIV-1 Env of isolate MG RM-A-001 (subtype A) (HIV-1)
# Experiment: cell-based or functional assay
row,Binder,"IC50, pseudovirus neutralization [µg/mL]"
1,B1,0.209
2,B2,0.169
3,B3,0.274

# Molecular target: HIV-1 Env of isolate MG RM-A-005 (subtype A) (HIV-1)
# Experiment: cell-based or functional assay
row,Binder,"IC50, pseudovirus neutralization [µg/mL]"
1,B1,11.1
2,B2,9.7
3,B3,7.48

# Molecular target: HIV-1 Env of isolate MG RM-AG-013 (subtype AG) (HIV-1)
# Experiment: cell-based or functional assay
row,Binder,"IC50, pseudovirus neutralization [µg/mL]"
1,B1,> 50
2,B2,21.7
3,B3,> 50

# Molecular target: HIV-1 Env of isolate MG RM-A-002 (subtype A) (HIV-1)
# Experiment: cell-based or functional assay
row,Binder,"IC50, pseudovirus neutralization [µg/mL]"
1,B1,0.217
2,B2,0.007
3,B3,0.016

# Molecular target: HIV-1 Env of isolate MG RM-AG-008 (subtype AG) (HIV-1)
# Experiment: cell-based or functional assay
row,Binder,"IC50, pseudovirus neutralization [µg/mL]"
1,B1,19.2
2,B2,12.1
3,B3,34

# Molecular target: HIV-1 Env of isolate MG RM-AG-012 (subtype AG) (HIV-1)
# Experiment: cell-based or functional assay
row,Binder,"IC50, pseudovirus neutralization [µg/mL]"
1,B1,> 50
2,B2,> 50
3,B3,> 50

# Molecular target: HIV-1 Env of isolate MG RM-AG-006 (subtype AG) (HIV-1)
# Experiment: cell-based or functional assay
row,Binder,"IC50, pseudovirus neutralization [µg/mL]"
1,B1,> 50
2,B2,> 50
3,B3,> 50

# Molecular target: HIV-1 Env of isolate MG RM-A-004 (subtype A) (HIV-1)
# Experiment: cell-based or functional assay
row,Binder,"IC50, pseudovirus neutralization [µg/mL]"
1,B1,0.007
2,B2,0.002
3,B3,0.007

# Molecular target: HIV-1 Env of isolate MG RM-AG-011 (subtype AG) (HIV-1)
# Experiment: cell-based or functional assay
row,Binder,"IC50, pseudovirus neutralization [µg/mL]"
1,B1,0.118
2,B2,0.081
3,B3,0.156

# Molecular target: HIV-1 Env of isolate MG RM-A-003 (subtype A) (HIV-1)
# Experiment: cell-based or functional assay
row,Binder,"IC50, pseudovirus neutralization [µg/mL]"
1,B1,7.96
2,B2,9.24
3,B3,11.2

# Molecular target: HIV-1 Env of isolate MG RM-A-013 (subtype A) (HIV-1)
# Experiment: cell-based or functional assay
row,Binder,"IC50, pseudovirus neutralization [µg/mL]"
1,B1,9.86
2,B2,3.73
3,B3,9.24

# Molecular target: HIV-1 Env of isolate MG RM-AG-003 (subtype AG) (HIV-1)
# Experiment: cell-based or functional assay
row,Binder,"IC50, pseudovirus neutralization [µg/mL]"
1,B1,> 50
2,B2,> 50
3,B3,> 50

# Molecular target: HIV-1 Env of isolate MG RM-A-014 (subtype A) (HIV-1)
# Experiment: cell-based or functional assay
row,Binder,"IC50, pseudovirus neutralization [µg/mL]"
1,B1,0.628
2,B2,0.367
3,B3,1.07

# Molecular target: HIV-1 Env of isolate MG RM-AG-005 (subtype AG) (HIV-1)
# Experiment: cell-based or functional assay
row,Binder,"IC50, pseudovirus neutralization [µg/mL]"
1,B1,0.497
2,B2,0.383
3,B3,1.11

# Molecular target: HIV-1 Env of isolate MG RM-A-006 (subtype A) (HIV-1)
# Experiment: cell-based or functional assay
row,Binder,"IC50, pseudovirus neutralization [µg/mL]"
1,B1,> 50
2,B2,> 50
3,B3,> 50

# Molecular target: HIV-1 Env of isolate MG RM-A-011 (subtype A) (HIV-1)
# Experiment: cell-based or functional assay
row,Binder,"IC50, pseudovirus neutralization [µg/mL]"
1,B1,> 50
2,B2,> 50
3,B3,> 50

# Molecular target: HIV-1 Env of isolate MG RM-A-012 (subtype A) (HIV-1)
# Experiment: cell-based or functional assay
row,Binder,"IC50, pseudovirus neutralization [µg/mL]"
1,B1,> 50
2,B2,> 50
3,B3,> 50

# Molecular target: HIV-1 Env of isolate MG RM-AG-002 (subtype AG) (HIV-1)
# Experiment: cell-based or functional assay
row,Binder,"IC50, pseudovirus neutralization [µg/mL]"
1,B1,0.049
2,B2,0.044
3,B3,0.076

# Molecular target: HIV-1 Env of isolate MG RM-A-010 (subtype A) (HIV-1)
# Experiment: cell-based or functional assay
row,Binder,"IC50, pseudovirus neutralization [µg/mL]"
1,B1,0.022
2,B2,0.015
3,B3,0.019

# Molecular target: HIV-1 Env of isolate MG RM-A-009 (subtype A) (HIV-1)
# Experiment: cell-based or functional assay
row,Binder,"IC50, pseudovirus neutralization [µg/mL]"
1,B1,0.029
2,B2,0.058
3,B3,0.05
